Anti-infective test results gathered from many reports (values: NIAID ChemDB through PubChem).

Common to all: growth or infection tests; organism: Herpes simplex virus 1; cell line: PRK; method: cytopathic effect; read-out: EC50

Rows are shuffled and stem from different studies. ECn: concentration that inhibits the pathogen or its effect by n%.

SMILES,strain,result
O=c1[nH]c(=O)n([C@H]2C[C@H](O)[C@@H](COP(=O)(O)O)O2)cc1/C=C/c1ccccc1,KOS,40 µg/mL
O=Cc1cn([C@H]2C[C@H](O)[C@@H](CO)O2)c(=O)[nH]c1=O,KOS,2 µg/mL
Nc1ncnc2c1ncn2[C@@H]1O[C@H](CO)[C@@H](O)[C@H]1OP(=O)(O)OC[C@H]1O[C@@H](n2cnc3c(N)ncnc32)[C@H](OP(=O)(O)OC[C@H]2O[C@@H](n3cc(/C=C/Br)c(=O)[nH]c3=O)C[C@@H]2O)[C@@H]1O,B2006 (TK-),>100 µg/mL
O=c1[nH]c(=O)n([C@@H]2C[C@H](CO)[C@@H](O)C2)cc1/C=C/Br,F,0.02 µg/mL
CCCc1cn([C@H]2C[C@H](O)[C@@H](CO)O2)c(=O)[nH]c1=O,F,4.8 µg/mL
CSCc1cn([C@H]2C[C@H](O)[C@@H](CO)O2)c(=O)[nH]c1=O,VDO374,2 µg/mL
O=c1[nH]c(=O)n([C@H]2C[C@H](O)[C@@H](CO)O2)cc1F,KOS,20 µg/mL
O=c1[nH]c(=O)n([C@H]2C[C@H](O)[C@@H](CO)O2)cc1I,McIntyre,0.1 µg/mL
O=c1[nH]c(=O)n([C@H]2C[C@H](O)[C@@H](CO)O2)cc1I,VEW257,0.15 µg/mL
O=c1[nH]c(=O)n([C@H]2C[C@H](O)[C@@H](CO)O2)cc1/C=C\Cl,F,0.7 µg/mL
Nc1ncnc2c1ncn2C[C@H](O)CO,1 (PAA-resistant),>400 µg/mL
Nc1nc2c(ncn2COCCO)c(=O)[nH]1,F,0.04 µg/mL
COc1nc(=O)n([C@H]2C[C@H](O)[C@@H](CO)O2)cc1/C=C/Cl,McIntyre,0.7 µg/mL
O=c1[nH]c(=O)n(C2CC(CO)[C@@H](O)C2)cc1/C=C/Br,McIntyre,0.07 µg/mL
CCc1cn([C@H]2C[C@H](O)[C@@H](CO)O2)c(N)nc1=O,F,>400 µg/mL
CCc1cn([C@H]2C[C@H](O)[C@@H](COP(=O)(O)O)O2)c(=O)[nH]c1=O,CL 101 (TK-),>820 µg/mL
O=c1[nH]c(=O)n(C2CC(O)C(CO)O2)cc1CCCCl,McIntyre,0.2 µg/mL
O=c1[nH]c(=O)n([C@H]2CC[C@@H](CO)O2)cc1/C=C/Br,F,0.007 µg/mL
O=c1[nH]c(=O)n([C@H]2C[C@@H](CO)[C@H](O)C2)cc1/C=C/Br,KOS,0.7 µg/mL
O=c1[nH]c(=O)n([C@H]2C[C@H](O)[C@@H](CO)O2)cc1/C=C/Br,McIntyre,0.02 µg/mL
[N-]=[N+]=NCc1cn([C@H]2C[C@H](O)[C@@H](CO)O2)c(=O)[nH]c1=O,B2006 (TK-),≥40 µg/mL
CCc1cn([C@H]2C[C@H](O)[C@@H](CO)O2)c(=O)[nH]c1=O,KOS,0.7 µg/mL
O=c1[nH]c(=O)n(C2CC(CO)[C@H](O)C2)cc1I,McIntyre,0.1 µg/mL
CCc1cn([C@H]2C[C@H](O)[C@@H](CO)O2)c(=O)[nH]c1=O,McIntyre,0.2 µg/mL

The last 3 rows once more:

SMILES,strain,result
CCc1cn([C@H]2C[C@H](O)[C@@H](CO)O2)c(=O)[nH]c1=O,KOS,0.7 µg/mL
O=c1[nH]c(=O)n(C2CC(CO)[C@H](O)C2)cc1I,McIntyre,0.1 µg/mL
CCc1cn([C@H]2C[C@H](O)[C@@H](CO)O2)c(=O)[nH]c1=O,McIntyre,0.2 µg/mL